Pooled drug test results. Numbers come from NIAID ChemDB, via PubChem.

Common to all: tests in culture; organism: Candida parapsilosis; endpoint: MFC

Conditions beyond the fields shown may differ between rows. An empty or dashed field is not shown.

structure	strain	method	value
CC1(C)CC[C@]2(C(=O)O)CC[C@]3(C)C(=CC[C@@H]4[C@@]5(C)CC[C@H](OC6O[C@H](CO)[C@@H](O)[C@H](O)[C@H]6O)[C@@](C)(CO)[C@@H]5CC[C@]43C)[C@@H]2C1	Clinical isolates		>100 µg/mL
CC(C)CC1NC(=O)CC(CCCCCCCCC(C)O)OC(=O)C(CC(C)C)NC(=O)C(CC(C)C)NC(=O)C(CC(C)C)NC(=O)C(C(C)C)NC(=O)C(CC(=O)O)NC(=O)C(CC(C)C)NC1=O	MTCC 19658	visual reading	2 µg/mL
C[C@H]1[C@H](O)[C@@H](C)/C=C/C=C/C=C/C=C/C=C/C=C/C=C/[C@H](O[C@@H]2O[C@H](C)[C@@H](O)[C@H](N)[C@@H]2O)C[C@@H]2O[C@](O)(C[C@@H](O)C[C@@H](O)CC[C@H](O)[C@@H](O)C[C@@H](O)CC(=O)O[C@H]1C)C[C@H](O)[C@H]2C(=O)O	MTCC 1965	broth dilution	1 µg/mL
Clc1ccc(C(c2ccccc2)n2cncn2)cc1		broth dilution	>256 µg/mL
CC1(C)CC[C@]2(C(=O)O)CC[C@]3(C)C(=CC[C@@H]4[C@@]5(C)CC[C@H](OC6O[C@H](CO)[C@@H](O)[C@H](O)[C@H]6OC6O[C@H](CO)[C@@H](O)[C@H](O)[C@H]6O)C(C)(C)[C@@H]5CC[C@]43C)[C@@H]2C1	Clinical isolates		>100 µg/mL
O=C(c1ccccc1)C(c1ccccc1)n1cncn1		broth dilution	>256 µg/mL
Cc1ccc(/C=N/Nc2ccnc3cc(Cl)ccc23)cc1			40 µg/mL
CCOc1ccc2nc3cc(N=C4NC(=O)/C(=C\C=C\c5ccc([N+](=O)[O-])o5)S4)ccc3c(N)c2c1		broth dilution	>1000 µg/mL
c1ccc(C(c2ccccc2)n2cnc3ccccc32)cc1		broth dilution	>256 µg/mL
O/N=C\c1ccc(O)cc1		broth dilution	>7290 µM
COc1ccc(C(c2ccc(OC)cc2)n2ccnc2)cc1		broth dilution	>256 µg/mL
CC1(C)CC[C@]2(C(=O)O)CC[C@]3(C)C(=CC[C@@H]4[C@@]5(C)CC[C@H](OC6O[C@H](CO)[C@@H](O)[C@H](O)[C@H]6OC6O[C@H](CO)[C@@H](O)[C@H](O)[C@H]6O)[C@@](C)(CO)[C@@H]5CC[C@]43C)[C@@H]2C1	Clinical isolates		>100 µg/mL
c1ccc(C(c2ccccc2)n2nnc3ccccc32)cc1		broth dilution	>256 µg/mL
CN[C@H]1CC[C@@H](c2ccc(Cl)c(Cl)c2)c2ccccc21	MMRL1594	broth dilution	24 µg/mL
C[C@@H]1O[C@@H](O[C@H]2[C@H](O)[C@@H](O)C(OC3[C@H](O[C@H]4CC[C@]5(C)[C@H]6CC=C7[C@@H]8CC(C)(C)CC[C@]8(C(=O)O)CC[C@@]7(C)[C@]6(C)CC[C@H]5C4(C)C)OC[C@H](O)[C@@H]3O)O[C@@H]2CO)[C@H](O)[C@H](O)[C@H]1O	Clinical isolates		>100 µg/mL